Compound potency records, mixed from different reports. Data source: NIAID ChemDB in PubChem.

Common to all: tests in culture; organism: HIV-1; endpoint: fold resistance

Fold resistance: result on the changed form divided by that on wild type.

SMILES,mutations,strain or isolate,cell line,result
CC(C)(C)C(=O)c1sc(C(=O)NCCc2ccccc2)c(O)c1O,INTG-S153Y,,,2
COc1ccc(S(=O)(=O)N(CC(C)C)C[C@@H](O)[C@H](Cc2ccccc2)NC(=O)O[C@H]2CO[C@H]3OCC(F)(F)[C@H]32)cc1,L10F V32I M46I I45M A71V I84V APV resistant,NL4-3,MT-4,860
Cc1cn([C@H]2C[C@H](N=[N+]=[N-])[C@@H](CO)O2)c(=O)[nH]c1=O,RT-A98G K103R,BCF11,PBMC,1
O=C(NCc1ccc(F)cc1)c1nc(N2CCCCS2(=O)=O)c2cccnc2c1O,INTG-Q148K,,,21
Nc1nc(=O)n([C@@H]2CS[C@H](CO)O2)cc1F,RT-M41L D67N M184V L210W T215Y,,,~20
O=C1O[C@H]2[C@@H]3OC(=O)c4cc(O)c(O)c(O)c4-c4c(cc(O)c(O)c4O)C(=O)OC[C@H]2O[C@@H](OC(=O)c2cc(O)c(O)c(O)c2)[C@@H]3OC(=O)c2cc(O)c(O)c3c2[C@@H]2C1=CC(=O)[C@](O)(O3)C2(O)O,RT-D67N K70R T215F K219Q,NRTI resistant (RT D67N K70R T215F K219Q) ARP141,MAGI,1.12
CC(C)CN(C[C@@H](O)[C@H](Cc1ccccc1)NC(=O)[C@H](CC(N)=O)NC(=O)c1ccc2ccccc2n1)C(=O)NC(C)(C)C,PR-A71T V82A,BMS-186318-resistant (PR A71T V82A),,2.08
Nc1nc2c(ncn2[C@H]2CO[C@@H](CO)O2)c(=O)[nH]1,RT M41L T69SS insertion T215Y,RT-41L 69[SS] 215Y,,2
CC(C)=CCN1Cc2cc(Cl)cc3[nH]c(=S)n(c23)C[C@@H]1C,RT-A98G,RUD (RT-A98G),PBMC,55
Nc1ccn([C@H]2CC[C@@H](CO)O2)c(=O)n1,RT-D67N K70R V108A I135T T215Y,IIIB-AZT-1 (RT D67N K70R V108A I135T T215Y),MT-4,1.57
O=c1[nH]cnc2c1ncn2[C@H]1CC[C@@H](CO)O1,RT-A98G V106I Y181C,BCF02,PBMC,0.353
CC(C)CN(C[C@@H](O)[C@H](Cc1ccccc1)NC(=O)O[C@H]1CO[C@H]2OCC(F)(F)[C@H]21)S(=O)(=O)c1ccc(N)cc1,A28S L33F V82I GRL04810-resistant,NL4-3,MT-4,13
CC(C)=CCN1c2cc(Cl)cc3[nH]c(=S)n(c23)C[C@@H]1C,RT-K70R L100I,,MT-4,1
Nc1nc2c(ncn2[C@H]2CO[C@@H](CO)O2)c(=O)[nH]1,RT-K70R Y188L,Clinical isolate,,~1
COC(=O)N[C@H](C(=O)N[C@@H](Cc1ccccc1)[C@@H](O)CN(Cc1ccc(-c2ccccn2)cc1)NC(=O)[C@@H](NC(=O)OC)C(C)(C)C)C(C)(C)C,M46I I50V N38K M36I GRL05010-resistant,NL4-3,MT-4,24
CC(=O)Oc1ccc(/C=C/C(=O)O[C@@H](C(=O)O)[C@@H](OC(=O)/C=C/c2ccc(OC(C)=O)c(OC(C)=O)c2)C(=O)O)cc1OC(C)=O,Dextran sulfate-resistant,NL4-3,MT-4,>9.25
CC(C)(C)C(=O)c1sc(C(=O)NCc2ccccc2)c(O)c1O,INTG-T66I,,,0.16

For reference, 2 entries again:

SMILES	mutations	strain or isolate	cell line	result
CC(C)CN(C[C@@H](O)[C@H](Cc1ccccc1)NC(=O)O[C@H]1CO[C@H]2OCC(F)(F)[C@H]21)S(=O)(=O)c1ccc(N)cc1	A28S L33F V82I GRL04810-resistant	NL4-3	MT-4	13
Nc1nc2c(ncn2[C@H]2CO[C@@H](CO)O2)c(=O)[nH]1	RT-K70R Y188L	Clinical isolate		~1

Blank or dashed fields: not listed here. Rows are shuffled and stem from different studies.